According to patent publication US20240238428A1 (priority 2021, published 2024):

Molecular target: HIV viral gp120 protein (on virus) (HIV-1)
Test: cell-based or functional assay

B1: CD4 12-mer selenopeptide Se-… (peptide)
peptide: TYICEVEDQKEE
modifications: not checked
- fold increase in effectiveness at preventing infection over the peptide without selenium: 50 fold
